# Mutational interference map of HIV-1 RNA dimerization

The 5' region of HIV-1 NL4-3 RNA (positions 1-437):
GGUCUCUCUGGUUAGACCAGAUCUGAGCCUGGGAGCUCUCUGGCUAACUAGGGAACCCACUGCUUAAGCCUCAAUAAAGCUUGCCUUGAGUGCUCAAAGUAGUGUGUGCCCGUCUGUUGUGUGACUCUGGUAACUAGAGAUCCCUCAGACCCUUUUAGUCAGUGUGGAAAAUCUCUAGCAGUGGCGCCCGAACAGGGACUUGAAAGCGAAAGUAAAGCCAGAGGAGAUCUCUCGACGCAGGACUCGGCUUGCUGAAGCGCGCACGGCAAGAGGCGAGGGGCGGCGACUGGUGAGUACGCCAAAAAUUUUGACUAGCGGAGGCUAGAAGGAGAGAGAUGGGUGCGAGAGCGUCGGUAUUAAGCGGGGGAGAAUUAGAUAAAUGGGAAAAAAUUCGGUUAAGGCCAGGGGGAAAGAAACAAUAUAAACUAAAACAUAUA

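Randomly mutated transcripts starting with one, two or three G (1G, 2G, 3G), capped or uncapped, were folded for 30 min at 37 °C. Monomer and dimer bands were cut from native gels after folding in high salt (300 mM KCl, 5 mM MgCl2) or low salt (40 mM KCl, 0.1 mM MgCl2). Mutation frequencies in the two bands give Kdimer.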

Values are log2 Kdimer, the median over the changes at each position: higher means that changes there hinder dimer formation, below 0 that they favour it. One numbering serves 1G, 2G and 3G. A position is written with its base where known.

C267 (domain SL1) read 1G capped low-salt 3.21; 2G uncapped low-salt 3.05; 2G uncapped high-salt 4.94; 3G uncapped low-salt 3.53.
A334 (domain AUG) read 1G capped low-salt 0.23; 2G uncapped low-salt 0.49; 2G uncapped high-salt 0.08; 3G uncapped low-salt 0.64.
U355 read 1G capped low-salt 0.18; 2G uncapped low-salt 0.00; 2G uncapped high-salt 0.17; 3G uncapped low-salt -0.19.
position 471 read 1G capped low-salt -0.17; 2G uncapped low-salt 0.06; 2G uncapped high-salt 0.07; 3G uncapped low-salt 0.01.
G167 (domain PBS) read 1G capped low-salt 0.36; 2G uncapped low-salt 0.32; 2G uncapped high-salt 0.26; 3G uncapped low-salt 0.29.
C188 (domain PBS) read 1G capped low-salt 0.30; 2G uncapped low-salt 0.16; 2G uncapped high-salt 0.03; 3G uncapped low-salt 0.79.
G108 (domain U5) read 1G capped low-salt 0.04; 2G uncapped low-salt -0.23; 2G uncapped high-salt -0.06; 3G uncapped low-salt 0.01.
G382 read 1G capped low-salt 0.15; 2G uncapped low-salt 0.19; 2G uncapped high-salt 0.10; 3G uncapped low-salt 0.15.
A59 (domain PolyA) read 1G capped low-salt 0.31; 2G uncapped low-salt 0.30; 2G uncapped high-salt 0.17; 3G uncapped low-salt 0.13.
A424 read 1G capped low-salt 0.08; 2G uncapped low-salt 0.03; 2G uncapped high-salt 0.05; 3G uncapped low-salt -0.05.
A347 read 1G capped low-salt 0.55; 2G uncapped low-salt 0.34; 2G uncapped high-salt 0.50; 3G uncapped low-salt 0.53.
C262 (domain SL1) read 1G capped low-salt 2.82; 2G uncapped low-salt 3.85; 2G uncapped high-salt 4.30; 3G uncapped low-salt 3.86.
A305 read 1G capped low-salt -0.06; 2G uncapped low-salt 0.09; 2G uncapped high-salt -0.18; 3G uncapped low-salt 0.19.
A67 (domain PolyA) read 1G capped low-salt 0.00; 2G uncapped low-salt 0.22; 2G uncapped high-salt 0.10; 3G uncapped low-salt -0.10.
U200 (domain PBS) read 1G capped low-salt 0.05; 2G uncapped low-salt 0.11; 2G uncapped high-salt 0.09; 3G uncapped low-salt 0.12.
U49 (domain TAR) read 1G capped low-salt 0.01; 2G uncapped low-salt -0.23; 2G uncapped high-salt 0.07; 3G uncapped low-salt -0.05.
G226 read 1G capped low-salt -0.57; 2G uncapped low-salt -0.60; 2G uncapped high-salt -0.24; 3G uncapped low-salt -0.64.
G413 read 1G capped low-salt -0.14; 2G uncapped low-salt 0.06; 2G uncapped high-salt 0.12; 3G uncapped low-salt -0.18.
C287 (domain SL2) read 1G capped low-salt -0.55; 2G uncapped low-salt -0.64; 2G uncapped high-salt -0.16; 3G uncapped low-salt -0.78.
G328 read 1G capped low-salt -0.07; 2G uncapped low-salt -0.17; 2G uncapped high-salt 0.01; 3G uncapped low-salt -0.17.

Extract of 2 entries:

position,domain,1G capped low-salt,2G uncapped low-salt,2G uncapped high-salt,3G uncapped low-salt
A67,PolyA,0.00,0.22,0.10,-0.10
U355,none,0.18,0.00,0.17,-0.19

The source gives no letters past position 437.

Reference: Ye et al. 2022, doi:10.1038/s41594-022-00746-2.